A mixed list of measured activities; the numbers were collected in NIAID ChemDB.

Shared fields: tests in culture; agent: Herpes simplex virus 1; measure: EC50

Neighbouring rows are from separate reports. ECn is the concentration giving n% inhibition of infection, replication or growth. Blank or dashed fields: not listed here.

O=C(NCc1ccc(Cl)cc1)c1c[nH]c2c(F)cccc2c1=O ; strain or isolate: KOS ; read by: plaque count ; result: 16 µM
Nc1cc([C@H]2C[C@H](O)[C@@H](CO)O2)c(F)cc1F ; strain or isolate: VMW 1837 ; cell line: E6SM ; read by: cytopathic effect ; result: >400 µg/mL
Nc1ncnc2c1ncn2[C@@H]1O[C@H](CO)[C@@H](O)[C@@H]1O ; strain or isolate: MMUDR-resistant ; cell line: RK-13 ; read by: plaque count ; result: 19 µM
Nc1nc2c(ncn2CCC(CO)CO)c(=O)[nH]1 ; strain or isolate: KOS ; cell line: BALB/3T3 ; read by: plaque count ; result: 0.037 µg/mL
Nc1ncnc2c1ncn2[C@@H]1O[C@H](COP(=O)(O)O)[C@@H](O)[C@@H]1O ; strain or isolate: E-377 ; cell line: MEF ; read by: plaque count ; result: 17 µM
Nc1nc2c(ncn2C[C@]2(CO)C[C@H]2CO)c(=O)[nH]1 ; strain or isolate: 5 isolates ; cell line: MRC-5 ; read by: plaque count ; result: 0.013 µg/mL
O=c1[nH]c(=O)n([C@@H]2O[C@H](CO)[C@@H](O)[C@@H]2O)cc1/C=C/Br ; strain or isolate: KOS ; cell line: HSF ; read by: cytopathic effect ; result: 0.02 µg/mL
C[C@H]1[C@H](O)[C@@H](CO)O[C@H]1n1cc(I)c(=O)[nH]c1=O ; strain or isolate: Hangai ; cell line: RPMI8226 ; read by: cytopathic effect ; result: 0.16 µg/mL
Cc1c(O)c2ccc(N(C)C)cc2[nH]c1=O ; cell line: KB ; read by: plaque count ; result: 3 µg/mL
O=c1[nH]c(=O)n([C@H]2C[C@H](O)[C@@H](CO)O2)cc1F ; strain or isolate: 77 ; cell line: HELF ; read by: plaque count ; result: 55 µM
COCc1cn([C@@H]2C[C@H](CO)[C@@H](O)C2)c(=O)nc1NCc1ccccc1 ; strain or isolate: McIntyre ; cell line: A549 ; read by: plaque count ; result: >2800 µM
Nc1nc2c(ncn2COCCO)c(=O)[nH]1 ; strain or isolate: X17626 (acyclovir-susceptible) ; cell line: HFF ; read by: cytopathic effect ; result: 1 µg/mL
CC(=O)OC[C@H]1[C@H](COC(C)=O)[C@@H](CO)O[C@H]1n1cnc2c(N)ncnc21 ; strain or isolate: Clinical isolate HL-3 ; cell line: MEF ; read by: plaque count ; result: 135 µM
CN(C)c1ccc2ccc(N)cc2n1 ; cell line: KB ; read by: plaque count ; result: 3 µg/mL
CCCC(=O)Nc1nc(=O)n([C@@H]2C[C@H](CO)[C@@H](O)C2)cc1COC ; strain or isolate: McIntyre ; cell line: A549 ; read by: plaque count ; result: 0.87 µM
Cc1cn([C@@H]2O[C@H](CO)[C@@H](O)[C@@H]2F)c(=O)[nH]c1=O ; strain or isolate: V3 ; cell line: HELF ; read by: plaque count ; result: 0.09 µM
O=C(O)CP(=O)(O)O ; strain or isolate: Wilson ; cell line: MEF ; read by: plaque count ; result: 4.1 µg/mL
O=C(NCc1ccc(Cl)cc1)c1c[nH]c2c(F)cccc2c1=O ; read by: plaque count ; result: 9.1 µM
Nc1ncnc2c1ncn2[C@@H]1O[C@H](CO)[C@@H](O)[C@@H]1O ; strain or isolate: KOS ; cell line: HSF ; read by: cytopathic effect ; result: 15 µg/mL
CNc1cc(C)nc2cc(N(C)C)ccc12 ; cell line: KB ; read by: plaque count ; result: 2 µg/mL
CN(C)Cc1cn([C@H]2C[C@H](O)[C@@H](CO)O2)c(=O)[nH]c1=O ; strain or isolate: KOS ; cell line: HSF ; read by: cytopathic effect ; result: >200 µg/mL
C[C@H]1[C@H](O)[C@@H](CO)O[C@H]1n1cc(F)c(=O)[nH]c1=O ; strain or isolate: KOS ; cell line: RPMI8226 ; read by: cytopathic effect ; result: >67.5 µg/mL
O=C(CCl)NCc1cn([C@H]2C[C@H](O)[C@@H](CO)O2)c(=O)[nH]c1=O ; strain or isolate: KOS ; cell line: HSF ; read by: cytopathic effect ; result: 150 µg/mL
O=[N+]([O-])c1cc([C@H]2C[C@H](O)[C@@H](CO)O2)c(F)cc1F ; strain or isolate: KOS ; cell line: E6SM ; read by: cytopathic effect ; result: >400 µg/mL
Nc1nc(=O)n([C@@H]2O[C@H](CO)[C@@H](O)[C@@H]2F)cc1I ; strain or isolate: KOS ; cell line: RPMI8226 ; read by: cytopathic effect ; result: 0.0013 µg/mL
O=c1[nH]c(=O)n([C@H]2C[C@H](O)[C@@H](CO)O2)cc1/C=C/Br ; strain or isolate: KOS ; cell line: BALB/3T3 ; read by: cytopathic effect ; result: 0.007 µg/mL
Nc1nc2c(ncn2CC(CO)OCP(=O)(O)O)c(=O)[nH]1 ; strain or isolate: KOS ; cell line: WI-38 ; read by: plaque count ; result: 1.6 µM
Cc1cn([C@@H]2O[C@H](CO)[C@@H](O)[C@@H]2O)c(=O)[nH]c1=O ; strain or isolate: 77 ; cell line: HELF ; read by: plaque count ; result: 0.24 µM
Nc1nc2c(ncn2CC(CO)CCO)c(=O)[nH]1 ; strain or isolate: KJ502 ; cell line: VERO ; read by: plaque count ; result: 0.3 µM
Nc1nc(=O)n([C@H]2C[C@H](O)[C@@H](CO)O2)cc1/C=C\Cl ; strain or isolate: McIntyre ; cell line: PRK ; read by: cytopathic effect ; result: 2 µg/mL
OC[C@H]1O[C@H](c2cc(Br)c(F)cc2F)C[C@@H]1O ; strain or isolate: McIntyre ; cell line: E6SM ; read by: cytopathic effect ; result: >400 µg/mL
CN(C)c1ccc2ccc(N(C)C)nc2c1 ; cell line: KB ; read by: plaque count ; result: 3 µg/mL
Nc1nc2c(ncn2CC[C@@H](O)CO)c(=O)[nH]1 ; strain or isolate: C1 (101) ; cell line: VERO ; read by: plaque count ; result: 6.8 µM
O=C(NCc1ccc(Cl)cc1)c1cn2c3c(cc(CN4CCOCC4)cc3c1=O)OC(c1cccnc1)C2 ; strain or isolate: L6178033 ; cell line: HFF ; read by: plaque count ; result: 4 µM
O=c1[nH]c(=O)n([C@H]2O[C@@H](CO)[C@@H](O)[C@@H]2O)cc1C(F)(F)F ; strain or isolate: 77 ; cell line: HELF ; read by: plaque count ; result: 85 µM
OC[C@H]1O[C@@H](c2ccc(F)cc2F)C[C@@H]1O ; strain or isolate: F ; cell line: E6SM ; read by: cytopathic effect ; result: >400 µg/mL
[O-][n+]1onc2ncnc(N3CC[N+]4(CC3)CC[N+]3(CCN(c5ncnc6no[n+]([O-])c56)CC3)CC4)c21 ; strain or isolate: K1 ; cell line: GMK ; read by: plaque count ; result: 8.6 µM
Nc1nc2c(ncn2COCCO)c(=O)[nH]1 ; strain or isolate: KOS ; cell line: ESM ; read by: cytopathic effect ; result: 0.07 µg/mL
O=C(NCc1ccc(Cl)cc1)c1c[nH]c2c(F)cc(CCCO)cc2c1=O ; read by: plaque count ; result: 4.5 µM
Cc1ccc2ccc(N(C)C)cc2n1 ; cell line: KB ; read by: plaque count ; result: 9 µg/mL
Nc1nc(=O)n([C@H]2C[C@H](O)[C@@H](CO)O2)cc1/C=C/Br ; strain or isolate: McIntyre ; cell line: A549 ; read by: plaque count ; result: 0.61 µM
Cc1ccnc2cc(N)ccc12 ; cell line: KB ; read by: plaque count ; result: 2 µg/mL
O=c1[nH]c(=O)n([C@H]2C[C@H](O)[C@@H](CO)O2)cc1/C=C/Br ; strain or isolate: TK- ; cell line: Primary rabbit kidney cells ; read by: cytopathic effect ; result: >10 µg/mL
O=C(O)CP(=O)(O)O ; cell line: WI-38 ; result: <100 µg/mL
COCc1cn([C@@H]2C[C@H](CO)[C@@H](O)C2)c(=O)nc1NO ; strain or isolate: McIntyre ; cell line: A549 ; read by: plaque count ; result: 1475 µM
Cc1cn([C@@H]2O[C@H](CO)[C@H]2CO)c(=O)[nH]c1=O ; strain or isolate: 11359 (TK-) ; cell line: HFF ; read by: plaque count ; result: >100 µg/mL
O=c1[nH]c(=O)n([C@H]2C[C@H](O)[C@@H](CO)O2)cc1I ; strain or isolate: VDX500 ; cell line: PRK ; read by: cytopathic effect ; result: 0.1 µg/mL
Nc1nc2c(ncn2COC(CO)CO)c(=O)[nH]1 ; strain or isolate: 7294 (DRUG-resistant) ; cell line: VERO H ; read by: plaque count ; result: 51.77 µM
O=Cc1cn([C@H]2C[C@H](O)[C@@H](CO)O2)c(=O)[nH]c1=O ; strain or isolate: KOS ; cell line: HSF ; read by: cytopathic effect ; result: 0.4 µg/mL
Nc1nc(-c2ccc(NC(=O)CN(Cc3ccncc3)C(=O)C3CCCCC3)cc2)cs1 ; cell line: BHK-21/C13 ; read by: plaque count ; result: 0.014 µM
Nc1nc(=O)n([C@@H]2O[C@H](CO)[C@@H](O)[C@@H]2F)cc1I ; strain or isolate: KOS ; cell line: BALB/3T3 ; read by: cytopathic effect ; result: 0.02 µg/mL
Cc1cc([C@H]2C[C@H](O)[C@@H](CO)O2)c(Cl)cc1F ; strain or isolate: KOS/ACV-R ; cell line: E6SM ; read by: cytopathic effect ; result: >400 µg/mL
CNc1ccc2ccc(N(C)C)cc2n1 ; cell line: KB ; read by: plaque count ; result: 2 µg/mL
C[C@H]1[C@H](O)[C@@H](CO)O[C@H]1n1cc(I)c(N)nc1=O ; strain or isolate: Hangai ; cell line: RPMI8226 ; read by: cytopathic effect ; result: 0.32 µg/mL
O=c1[nH]c(=O)n([C@@H]2O[C@H](CO)[C@@H](O)[C@@H]2O)cc1F ; strain or isolate: 77 ; cell line: HELF ; read by: plaque count ; result: 55 µM
Cc1c(Cl)nc2cc(N(C)C)ccc2c1Cl ; cell line: KB ; read by: plaque count ; result: 2 µg/mL
C=Cc1cn([C@@H]2O[C@H](CO)[C@@H](O)[C@@H]2O)c(=O)[nH]c1=O ; strain or isolate: V3 ; cell line: HELF ; read by: plaque count ; result: 0.37 µM
Nc1ncnc2c1ncn2C[C@@H](CO)OCP(=O)(O)O ; strain or isolate: F ; cell line: ESM ; read by: cytopathic effect ; result: 0.2 µg/mL
Cn1cc(C(=O)NCc2ccc(Cl)cc2)c(=O)c2cc(CN3CCOCC3)ccc21 ; strain or isolate: HL-3 ; cell line: HFF ; read by: plaque count ; result: 2.9 µM
OC[C@H]1O[C@@H](c2cc(I)c(F)cc2F)C[C@@H]1O ; strain or isolate: KOS/ACV-R ; cell line: E6SM ; read by: cytopathic effect ; result: >400 µg/mL
O=c1[nH]c(=O)n([C@H]2C[C@H](O)[C@@H](CO)O2)cc1/C=C\Cl ; strain or isolate: B2006 (TK-) ; cell line: PRK ; read by: cytopathic effect ; result: >200 µg/mL
Nc1nc(=O)n([C@@H]2O[C@H](CO)[C@@H](O)[C@@H]2F)cc1I ; strain or isolate: 77 ; cell line: HELF ; read by: plaque count ; result: 0.14 µM
OC[C@H]1O[C@H](c2ccc(F)cc2F)C[C@@H]1O ; strain or isolate: F ; cell line: E6SM ; read by: cytopathic effect ; result: >400 µg/mL

The first 6 rows once more:

SMILES	strain or isolate	cell line	read by	result
O=C(NCc1ccc(Cl)cc1)c1c[nH]c2c(F)cccc2c1=O	KOS		plaque count	16 µM
Nc1cc([C@H]2C[C@H](O)[C@@H](CO)O2)c(F)cc1F	VMW 1837	E6SM	cytopathic effect	>400 µg/mL
Nc1ncnc2c1ncn2[C@@H]1O[C@H](CO)[C@@H](O)[C@@H]1O	MMUDR-resistant	RK-13	plaque count	19 µM
Nc1nc2c(ncn2CCC(CO)CO)c(=O)[nH]1	KOS	BALB/3T3	plaque count	0.037 µg/mL
Nc1ncnc2c1ncn2[C@@H]1O[C@H](COP(=O)(O)O)[C@@H](O)[C@@H]1O	E-377	MEF	plaque count	17 µM
Nc1nc2c(ncn2C[C@]2(CO)C[C@H]2CO)c(=O)[nH]1	5 isolates	MRC-5	plaque count	0.013 µg/mL